In the series the target is MBP-Rns WT (enterotoxigenic Escherichia coli (ETEC)) (UniProt P16114). Description: EMSA. The note with it: no decanoic acid (DMSO); recombinant protein; protein details: N-terminal MBP; label: 5' Cy5.5 on both strands. (In general: In EMSA bound probe runs differently from free probe, usually more slowly.)

Protein sequences, listed by entry. Tags and fused reporters are not part of them. Lines headed by an entry give the natural chain unless they say otherwise; changes in a name come on top.
UniProt P16114: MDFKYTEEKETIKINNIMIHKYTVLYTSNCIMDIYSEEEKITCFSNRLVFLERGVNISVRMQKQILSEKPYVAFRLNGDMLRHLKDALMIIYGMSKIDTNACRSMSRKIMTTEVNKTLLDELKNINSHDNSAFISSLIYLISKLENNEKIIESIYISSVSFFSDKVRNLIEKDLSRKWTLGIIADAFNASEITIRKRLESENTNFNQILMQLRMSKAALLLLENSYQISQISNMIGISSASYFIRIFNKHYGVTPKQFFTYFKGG

Construct, isoform or probe ends are uncertain for at least one entry. At least one verdict was read from the data and is not stated in words by the source.

Turning to “TAGATGGAATGTGTTATTTTTTTATCAAAATTATATTTGT (double strand) [2107/2108 prototypical Rns binding site]”, the binding result is recorded as “binds”.

Values taken from PMC12379584, “Characterization of the ligand binding pocket of the virulence regulator Rns, a member of the AraC/XylS family of transcription factors” (mSphere, 2025).
